Data as given in PubChem BioAssay AID504761 (Drosophila RNAi Screening Center, 2011)
Aim: 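Insect host genes that dengue virus relies on to spread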 (primary screen). Cell system: D.Mel-2 cells from Drosophila. Knock-down reagent: long dsRNA against Drosophila genes. Treatment: infection with dengue virus type 2; dose and infection time not stated. Detection: 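Per well on two replicate plates, imaging gave the percent of cells positive for viral envelope protein, ranked by infection, and a nuclear count of cells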. Reading the numbers: infection score: higher = more virus-infected cells. Rule for the call: 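Very low infection ranking in both replicate wells (chance probability at most 0.065), then a retest showing infection dropped 1.5-fold or more at p below 0.05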. Calls: active = confirmed: knock-down lowers infection; inactive = not picked or not confirmed.
In all, the deposit lists about 22,000 reagents; shown is an unselected part of those with a known target gene and a result. Over the whole deposit, 116 (0.52%) are marked active. 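Calls depend on retest data that are not deposited; infection was ranked per plate without normalising between plates; the unit of the infection score is not given.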 Further read-outs or replicates are left out here. Not given: the amount of reagent, the time to read-out.

| gene knocked down | dsRNA | infection score, replicate 1 | outcome |
| --- | --- | --- | --- |
| GstT1 (Glutathione S transferase T1) | DRSC06243 | 6.81 | inactive |
| Sfmbt (Scm-related gene containing four mbt domains) | DRSC02552 | 5.98 | inactive |
| Sfmbt (Scm-related gene containing four mbt domains) | DRSC24312 | 2.56 | inactive |
| png (pan gu) | DRSC18582 | 8.85 | inactive |
| png (pan gu) | DRSC26812 | 9.87 | inactive |
| dgt1 (dim gamma-tubulin 1) | DRSC15301 | 8.32 | inactive |
| CG14298 | DRSC14777 | 2.06 | inactive |
| RpL32 (Ribosomal protein L32) | DRSC16835 | 1.13 | inactive |
| RpL32 (Ribosomal protein L32) | DRSC27164 | 8.53 | inactive |
| CtIP (CTBP-interacting protein) | DRSC11785 | 3.07 | inactive |
| CtIP (CTBP-interacting protein) | DRSC29281 | 16.3 | inactive |
| IKKbeta (I-kappaB kinase beta) | DRSC16714 | 19.1 | inactive |
| Jra (Jun-related antigen) | DRSC07447 | 23.6 | inactive |
| Jra (Jun-related antigen) | DRSC27606 | 9.19 | inactive |

Entries listed so far whose target name starts with P or p (2):
| gene knocked down | dsRNA | infection score, replicate 1 | outcome |
| --- | --- | --- | --- |
| png (pan gu) | DRSC18582 | 8.85 | inactive |
| png (pan gu) | DRSC26812 | 9.87 | inactive |

The listing continues.
| gene knocked down | dsRNA | infection score, replicate 1 | outcome |
| --- | --- | --- | --- |
| Alg12 (Alg12 alpha-1,6-mannosyltransferase) | DRSC16416 | 2.6 | inactive |
| mus81 | DRSC18180 | 7.37 | inactive |
| mus81 | DRSC18644 | 4.45 | inactive |
| CG14502 | DRSC06473 | 10.5 | inactive |
| Efhc1.2 (EF-hand domain containing 1.2) | DRSC06027 | 0.77 | inactive |
| CG14000 | DRSC02332 | 2.58 | inactive |
| yrt (yurt) | DRSC16559 | 6.68 | inactive |
| CG14104 | DRSC10106 | 1.68 | inactive |
| Cpr72Ea (Cuticular protein 72Ea) | DRSC10451 | 1.25 | inactive |
